We go through one molecule from patent publication US20020032307A1 (GENERAL HOSPITAL CORPORATION A MASSACHUSETTS, published 2002).

The target in the assay is T1, p170 receptor (170 kd cell surface glycoprotein of duck hepatocytes) (duck (Pekin duck), UniProt Q90240 26-1389, glycosylated).
T1 construct: Native protein in detergent lysates of primary duck hepatocytes or duck liver; also called p170 protein; 170 kd glycoprotein
T1 sequence: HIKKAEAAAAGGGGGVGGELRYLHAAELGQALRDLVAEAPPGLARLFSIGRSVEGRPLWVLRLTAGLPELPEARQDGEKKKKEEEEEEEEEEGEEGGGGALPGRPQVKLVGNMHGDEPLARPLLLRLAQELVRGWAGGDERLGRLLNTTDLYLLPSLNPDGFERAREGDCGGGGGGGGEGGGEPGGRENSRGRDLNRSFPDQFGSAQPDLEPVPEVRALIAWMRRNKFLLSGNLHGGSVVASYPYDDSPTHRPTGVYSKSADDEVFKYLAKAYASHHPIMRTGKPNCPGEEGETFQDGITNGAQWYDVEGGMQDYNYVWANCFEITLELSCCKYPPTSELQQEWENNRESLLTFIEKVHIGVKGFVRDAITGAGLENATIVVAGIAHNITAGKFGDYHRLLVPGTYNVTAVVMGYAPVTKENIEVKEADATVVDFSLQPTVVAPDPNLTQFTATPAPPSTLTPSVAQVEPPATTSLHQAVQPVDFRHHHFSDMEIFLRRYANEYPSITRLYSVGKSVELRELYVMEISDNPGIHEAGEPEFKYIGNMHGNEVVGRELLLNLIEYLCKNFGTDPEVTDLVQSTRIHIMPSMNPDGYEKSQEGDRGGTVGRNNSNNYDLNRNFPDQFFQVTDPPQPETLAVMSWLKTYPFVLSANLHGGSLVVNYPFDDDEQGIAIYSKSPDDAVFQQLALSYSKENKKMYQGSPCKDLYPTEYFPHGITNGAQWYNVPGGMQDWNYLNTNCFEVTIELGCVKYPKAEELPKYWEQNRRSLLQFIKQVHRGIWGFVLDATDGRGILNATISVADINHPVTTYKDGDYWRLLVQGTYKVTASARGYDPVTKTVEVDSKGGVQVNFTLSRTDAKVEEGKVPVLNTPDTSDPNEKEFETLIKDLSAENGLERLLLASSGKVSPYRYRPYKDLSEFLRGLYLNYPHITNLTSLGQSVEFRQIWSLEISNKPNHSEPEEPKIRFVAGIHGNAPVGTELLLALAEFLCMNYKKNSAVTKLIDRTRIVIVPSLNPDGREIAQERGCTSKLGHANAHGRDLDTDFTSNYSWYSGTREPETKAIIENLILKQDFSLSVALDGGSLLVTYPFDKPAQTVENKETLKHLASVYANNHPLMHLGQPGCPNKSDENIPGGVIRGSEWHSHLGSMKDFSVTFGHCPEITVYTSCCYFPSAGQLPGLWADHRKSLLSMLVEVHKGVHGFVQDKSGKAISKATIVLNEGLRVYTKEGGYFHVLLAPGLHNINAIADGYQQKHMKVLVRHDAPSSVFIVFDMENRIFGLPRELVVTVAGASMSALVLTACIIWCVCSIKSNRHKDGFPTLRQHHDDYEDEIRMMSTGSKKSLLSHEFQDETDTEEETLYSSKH
Description: preclearing with Sepharose beads and GST-bound beads, 35S-labelled primary duck hepatocyte lysate, SDS-PAGE/fluorography.

B1: intact GST protein expressed from the pGEX 2TK expression vector (other)
chain: MSPILGYWKIKGLVQPTRLLLEYLEEKYEEHLYERDEGDKWRNKKFELGLEFPNLPYYIDGDVKLTQSMAIIRYIADKHNMLGGCPKERAEISMLEGAVLDIRYGVSRIAYSKDFETLKVDFLSKLPEMLKMFEDRLCHKTYLNGDHVTHPDFMLYDALDVVLYMDPMCLDAFPKLVCFKKRIEAIPQIDKYLKSSKYIAWPLQGWQATFGGGDHPPK
notes: also called GST alone
As for B1, the binding result was “no binding”.
